Measurements from article PMC9729238 (Communications Biology, 2022).

Key:
[1] = molecular target: α-bungarotoxin from Bungarus multicinctus (α-Bgtx) (Bungarus multicinctus) (UniProt P60615); assay: SPR
[2] = molecular target: T1, Nicotinic acetylcholine receptor of α7 type (α7-nAChR) expressed in HEK293 cells (UniProt P36544 23-502); assay: flow cytometry on cells
T1 construct: also called full-length α7 receptor; α7 receptor

## Chimera of the α7-nAChR extracellular domain with acetylcholine-binding protein (α7-ECD) (domain or fragment)
[1]
  Kd: 26 nM

B1: α-bungarotoxin from Bungarus multicinctus (α-Bgtx) (natural protein)
chain: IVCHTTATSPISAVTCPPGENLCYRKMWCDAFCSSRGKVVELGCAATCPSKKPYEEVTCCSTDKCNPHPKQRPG
[2]
  IC50: 3.2 nM
